Molecular target: Nterm1 (UniProt position 344, SIQSRGLFGAI)
Assay: NMR
Details: DPC micelle-bound helical hairpin

For “Hemagglutinin HA2 fusion peptide HAfp23 (Influenza A virus (serotype H1; strain not stated))”, the pKa was 8.73±0.07.
